The nature of the series: general procedure: solution-phase peptide synthesis; EDC hydrochloride with HOBt.H2O or HOOBt. The following applies: coupling step.

Regarding “Boc-Gly-Pro-Ser(Bzl)-Ser(Bzl)-Gly-Ala-Pro-Pro-Pro-Ser(Bzl)-NH2”, the “crude purity (method not given)” value was found to be 95.0%.

These data come from patent US20210380632 (published 2021).
